Results of unrelated studies side by side (data: NIAID ChemDB).

Shared fields: whole-cell or culture tests; species: HIV-1; read by: p24; endpoint: EC95

ECn is the concentration giving n% inhibition of infection, replication or growth. Lines come from different laboratories, so protocols vary.

{"SMILES": "CC(C)(c1ncc(-c2ccc(Cl)cc2)s1)N1CCN(C[C@@H](O)C[C@@H](Cc2cc3cnccc3s2)C(=O)N[C@H]2c3ccccc3OC[C@H]2O)[C@H](C(=O)NCC(F)(F)F)C1", "mutations": "PR-M46I L63P V82T I84V", "strain": "4X (PR M46I L63P V82T I84V)", "cell line": "MT-4", "value": "<0.0078 µM"}
{"SMILES": "CC(C)(C)NC(=O)[C@@H]1CN(Cc2cccnc2)CCN1C[C@@H](O)C[C@@H](Cc1cccnc1)C(=O)N[C@H]1c2ccccc2C[C@H]1O", "strain": "IIIB", "cell line": "H9", "value": ">0.2 µM"}
{"SMILES": "Cc1cc(C)c(-n2nnnc2SCC(=O)Nc2ccc(Cl)cn2)c(C)c1", "cell line": "MT-4", "value": "<10 µM"}
{"SMILES": "CC(C)(c1ncc(-c2ccc(Cl)cc2)o1)N1CCN(C[C@@H](O)C[C@@H](Cc2cc3ccncc3s2)C(=O)N[C@H]2c3ccccc3OC[C@H]2O)[C@H](C(=O)NCC(F)(F)F)C1", "mutations": "PR-M46I L63P V82T I84V", "strain": "4X (PR M46I L63P V82T I84V)", "cell line": "MT-4", "value": "<0.0078 µM"}
{"SMILES": "CN(C)Cc1nc(C(=O)NCc2ccc(F)cc2)c(O)c(=O)[nH]1", "conditions": "10% FBS", "cell line": "MT-4", "value": ">1 µM"}
{"SMILES": "Cc1cc(C)c(-n2nnnc2SCC(=O)Nc2ccc(C(=O)NCCCN(C)C)cc2Cl)c(C)c1", "conditions": "10% FBS", "cell line": "MT-4", "value": "0.062 µM"}
{"SMILES": "O=C(NCc1ccc(F)cc1)c1nc[nH]c(=O)c1O", "conditions": "50% human serum", "cell line": "MT-4", "value": ">10 µM"}
{"SMILES": "CCc1cc(NCc2nc3c(C)ccc(C)c3o2)c(=O)[nH]c1C", "strain": "rHXB2", "cell line": "MT-4", "value": "0.05 µM"}
{"SMILES": "COc1cc([N+](=O)[O-])ccc1NC(=O)CSc1nnnn1-c1c(C)cc(C)cc1C", "cell line": "MT-4", "value": "<10 µM"}
{"SMILES": "C[C@@H]1C[C@H](OC(=O)N[C@@H](Cc2ccccc2)[C@H](O)CN2C[C@H]3CCCC[C@H]3C[C@H]2C(=O)NC(C)(C)C)CS1(=O)=O", "strain": "IIIB", "cell line": "MT-4", "value": ">0.4 µM"}
{"SMILES": "O=c1[nH]cnc2c1ncn2[C@H]1CC[C@@H](CO)O1", "strain": "IIIB", "cell line": "MT-4", "value": "6.25 µM"}
{"SMILES": "O=C(NCc1ccc(F)cc1)c1nc(Cc2ccccc2)[nH]c(=O)c1O", "conditions": "50% human serum", "cell line": "MT-4", "value": ">10 µM"}
{"SMILES": "Cc1cc(C)c(-n2nnnc2SCC(=O)Nc2ccc([N+](=O)[O-])cc2)c(C)c1", "conditions": "50% human serum", "cell line": "MT-4", "value": ">5 µM"}
{"SMILES": "CC(C)(C)NC(=O)[C@@H]1C[C@H](Oc2ccc3ccccc3c2)CN1C[C@@H](O)C[C@@H](Cc1ccccc1)C(=O)N[C@H]1c2ccccc2C[C@H]1O", "strain": "IIIB", "cell line": "MT-4", "value": ">0.4 µM"}
{"SMILES": "CC(C)(C)NC(=O)[C@@H]1C[C@@H]2CCCC[C@@H]2CN1C[C@@H](O)[C@H](Cc1ccccc1)NC(=O)O[C@@H]1CO[C@@H]2OCC[C@@H]21", "strain": "IIIB", "cell line": "MT-4", "value": "0.2 µM"}
{"SMILES": "Cc1cc(C)c(-n2nnnc2SCC(=O)Nc2c(Cl)cccc2Cl)c(C)c1", "conditions": "50% human serum", "cell line": "MT-4", "value": ">5 µM"}
{"SMILES": "Cc1ccncc1-c1ccc(C[C@H](C[C@H](O)CN2CCN(Cc3ccc(-c4ccc(Cl)cc4)s3)C[C@H]2C(=O)NCC(F)(F)F)C(=O)N[C@H]2c3ccccc3OC[C@H]2O)o1", "strain": "NL4-3", "cell line": "MT-4", "value": "<0.0078 µM"}
{"SMILES": "CN1C[C@@H](O)C(C)(C)Cn2c(c3c(c(O)c2=O)C(=O)N(Cc2ccc(F)c(Cl)c2)CC3)C1=O", "cell line": "MT-4", "value": "0.031 µM"}
{"SMILES": "CC(C)(C)NC(=O)[C@@H]1C[C@@H]2CCCC[C@@H]2CN1C[C@@H](O)[C@H](Cc1ccccc1)NC(=O)O[C@@H]1CCS(=O)(=O)C1", "strain": "IIIB", "cell line": "MT-4", "value": ">0.8 µM"}
{"SMILES": "O=C1N(Cc2ccc(CO)cc2)[C@H](Cc2ccccc2)[C@H](O)[C@@H](O)[C@@H](Cc2ccccc2)N1Cc1ccc(CO)cc1", "mutations": "PR-L10R M46I L63P", "strain": "NL4-3", "cell line": "MT-4", "value": "0.2 µM"}
{"SMILES": "Cc1cc(C)c(-n2nnnc2SCC(=O)Nc2ccc(OCCCN(C)C)cc2Cl)c(C)c1", "conditions": "10% FBS", "cell line": "MT-4", "value": "0.031 µM"}
{"SMILES": "O=C1c2c(O)c(=O)n(C3CN4CCC3CC4)c(=O)n2CCN1Cc1ccc(F)cc1", "cell line": "MT-4", "value": "<10 µM"}
{"SMILES": "CC(C)(C)NC(=O)[C@@H]1C[C@@H]2CCCC[C@@H]2CN1C[C@@H](O)[C@H](Cc1ccccc1)NC(=O)O[C@H]1CO[C@@]2(C)OCC[C@@H]12", "strain": "IIIB", "cell line": "MT-4", "value": ">0.2 µM"}
{"SMILES": "CN(C)C(c1ccccc1)c1nc(C(=O)NCc2ccc(F)cc2)c(O)c(=O)[nH]1", "conditions": "50% human serum", "cell line": "MT-4", "value": ">10 µM"}
{"SMILES": "COC(=O)c1cccc(NC(=O)CSc2nnnn2-c2c(C)cc(C)cc2C)c1C", "cell line": "MT-4", "value": "<10 µM"}
{"SMILES": "CC(C)(C)NC(=O)[C@@H]1C[C@@H]2CCCC[C@@H]2CN1C[C@@H](O)[C@H](Cc1ccccc1)NC(=O)[C@H](CC(N)=O)NC(=O)c1ccc2ccccc2n1", "mutations": "PR-L10R L63P V82T I84V", "strain": "NL4-3", "cell line": "MT-4", "value": "0.1 µM"}
{"SMILES": "Cc1ccc(Cl)cc1-n1nnnc1SCC(=O)Nc1ccccc1[N+](=O)[O-]", "conditions": "50% human serum", "cell line": "MT-4", "value": "0.25 µM"}
{"SMILES": "CC(C)(c1ncc(-c2ccc(Cl)cc2)o1)N1CCN(C[C@@H](O)C[C@@H](Cc2cc3c(Cl)cncc3s2)C(=O)N[C@H]2c3ccccc3OC[C@H]2O)[C@H](C(=O)NCC(F)(F)F)C1", "mutations": "PR-M46I L63P V82T I84V", "strain": "4X (PR M46I L63P V82T I84V)", "cell line": "MT-4", "value": "<0.0078 µM"}
{"SMILES": "O=C(CSc1nnnn1-c1cc(Cl)ccc1Cl)Nc1ccccc1[N+](=O)[O-]", "conditions": "50% human serum", "cell line": "MT-4", "value": "1.25 µM"}
{"SMILES": "O=C1c2c(O)c(=O)n(CCc3cn4ccccc4n3)c(=O)n2CCN1Cc1ccc(F)cc1", "cell line": "MT-4", "value": "<10 µM"}
{"SMILES": "Cc1cc(C)c(-n2nnnc2SCC(=O)Nc2ccc([N+](=O)[O-])cc2C)c(C)c1", "conditions": "10% FBS", "cell line": "MT-4", "value": "1.25 µM"}
{"SMILES": "Cc1cn([C@H]2C[C@H](N=[N+]=[N-])[C@@H](CO)O2)c(=O)[nH]c1=O", "strain": "rA17", "cell line": "MT-4", "value": "0.025 µM"}
{"SMILES": "O=C1c2c(O)c(=O)n(CC(c3ccncc3)N3CCOCC3)c(=O)n2CCN1Cc1ccc(F)cc1", "cell line": "MT-4", "value": "<10 µM"}
{"SMILES": "O=C(CSc1nnnn1-c1ccc(Cl)c(Cl)c1)Nc1ccccc1[N+](=O)[O-]", "conditions": "10% FBS", "cell line": "MT-4", "value": ">5 µM"}